Data as given in ChEMBL document CHEMBL1147064 (Proc Natl Acad Sci U S A, 2007).

The chains behind the UniProt entries cited, without tags or fusion partners. Residues count along the entry.
UniProt P0DPI0, 2-448 limits assumed: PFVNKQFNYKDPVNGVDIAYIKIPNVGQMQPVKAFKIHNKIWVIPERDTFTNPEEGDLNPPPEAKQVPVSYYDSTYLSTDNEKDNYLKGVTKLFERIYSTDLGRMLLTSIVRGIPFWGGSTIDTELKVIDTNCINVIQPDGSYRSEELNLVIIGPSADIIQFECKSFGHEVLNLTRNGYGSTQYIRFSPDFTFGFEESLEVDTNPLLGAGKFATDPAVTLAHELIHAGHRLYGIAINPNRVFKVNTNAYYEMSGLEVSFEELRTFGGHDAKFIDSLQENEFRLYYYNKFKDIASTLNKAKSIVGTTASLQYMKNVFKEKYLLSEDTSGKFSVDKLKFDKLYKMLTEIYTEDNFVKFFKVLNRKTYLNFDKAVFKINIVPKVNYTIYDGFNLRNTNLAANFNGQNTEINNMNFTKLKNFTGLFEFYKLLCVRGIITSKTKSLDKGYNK

What follows are molecules tested against Botulinum neurotoxin type A (Clostridium botulinum, UniProt P0DPI0).

Row | SMILES | IC50
1 | O=C(NCc1ccccc1)[C@H]1CN(C(=O)c2ccc(-c3ccc(C(=O)N4C[C@@H](C(=O)NCc5ccccc5)[C@H](C(=O)NC5C[C@H]5c5ccccc5)C4)cc3)cc2)C[C@@H]1C(=O)NC1C[C@@H]1c1ccccc1 (stereo not given in full) | 91.2 µM
2 | O=C(NCCc1ccccc1)[C@H]1CN(C(=O)c2ccc(-c3ccc(C(=O)N4C[C@@H](C(=O)NCCc5ccccc5)[C@H](C(=O)NC(c5ccccc5)c5ccccc5)C4)cc3)cc2)C[C@@H]1C(=O)NC(c1ccccc1)c1ccccc1 | 54.2 µM
3 | COc1cccc(CCNC(=O)CN(CC(=O)NC2CCCc3ccccc32)C(=O)Cn2c(C(=O)N[C@H]3CCCC[C@@H]3NC(=O)c3cc4ccccc4n3CC(=O)N(CC(=O)NCCc3cccc(OC)c3)CC(=O)NC3CCCc4ccccc43)cc3ccccc32)c1 (stereo not given in full) | 19.1 µM
4 | COC(=O)c1cc2c3c(ccc2[nH]1)N(C(=O)c1nc2ccc(NC(=O)c4cc(NC(=O)OC(C)(C)C)cs4)cc2o1)CC3 | 46.2 µM
5 | O=C(CN(CC(=O)NCc1cc(F)cc(C(F)(F)F)c1)C(=O)Cn1c(C(=O)N[C@H]2CCCC[C@@H]2NC(=O)c2cc3ccccc3n2CC(=O)N(CC(=O)NCCc2ccc(O)cc2)CC(=O)NCc2cc(F)cc(C(F)(F)F)c2)cc2ccccc21)NCCc1ccc(O)cc1 | 14.3 µM
